A mixed list of measured activities; the numbers were collected in NIAID ChemDB.

All rows: tests in culture; species: Mycobacterium tuberculosis

An empty or dashed field is not shown. MIC bound: limit read from a one-dose screen. ECn is the concentration giving n% inhibition of infection, replication or growth. A number after MIC or MFC names an inhibition level or a share of isolates. Rows are shuffled and stem from different studies. Inhibition is in % at the dose shown (toxicity tests: loss of growth or viability).

| structure | dose | measure | method | strain | value |
|---|---|---|---|---|---|
| Nc1ccc(C(=O)O)c(O)c1 | - | EC50 | agar | 35 strains | <5 µg/mL |
| CN(C(=O)c1ccc([N+](=O)[O-])o1)c1ccccc1 | - | MIC90 | - | H37Rv | 6.25 µg/mL |
| C[C@@H]1CN(c2c(F)c(N)c3c(=O)c(C(=O)O)cn(C4CC4)c3c2F)C[C@H](C)N1 | - | MIC50 | - | 25 strains | 0.1 µg/mL |
| COc1cccc(NC(=O)C2=C(C)NC(C)=C(C(=O)Nc3cccc(OC)c3)C2c2ccc(Cl)cc2)c1 | - | MIC | - | H37Rv | >12.5 µg/mL |
| O=C(O)c1ccc(Sc2nnc(N3CCN(c4nc(N5CCN(c6ccccc6)CC5)c5ccccc5n4)CC3)o2)cc1 | - | MIC | agar / visual reading | H37Rv | 100 µg/mL |
| CC1=C(C(=O)Nc2cc(C)ccc2C)C(c2cccc(Br)c2)C(C(=O)Nc2cc(C)ccc2C)=C(C)N1 | - | MIC | - | H37Rv | >6.25 µg/mL |
| Cc1cccc2[nH]c(=O)c3cccnc3[n+]12 | - | MIC | - | H37Rv | >20 µg/mL |
| CCCCN(CCNc1ccc(C)c2sc3ccccc3c(=O)c12)CC(C)O | - | MIC bound | BACTEC | H37Rv | >12.5 µg/mL |
| Cc1ccc(-c2nc3sc(S(=O)(=O)/N=C/N(C)C)nn3c2/C=N/N=C(N)N)cc1 | 6.25 µg/mL | inhibition | - | H37Rv | 43% |
| CN1CCC(CN2c3ccccc3Sc3ccccc32)C1 | - | MIC | - | H37RA 16 | 5 µg/mL |
| COc1ccc(CNC(=O)c2ccc([N+](=O)[O-])o2)c(OC)c1 | - | MIC90 | - | H37Rv | 0.8 µg/mL |
| Cc1cc(Br)ccc1NC(=S)NNC(=O)c1ccncc1 | - | MIC | - | WT | 2.13 µM |
| CCc1cc(C(N)=S)ccn1 | 10 µg/mL | inhibition | agar | 25 strains | 100% |
| CC1S/C(=N/N=C/c2ccc(Cl)cc2)N=C1c1c(O)c2ccccc2oc1=O | 12.5 µg/mL | inhibition | BACTEC | H37Rv | 87% |
| Fc1ccc(-c2cn3nc(C(F)(F)F)sc3n2)cc1 | - | MIC | - | H37Rv | 50 µg/mL |
| O=C(NNC(=S)Nc1ccc(Cl)cc1)c1ccncc1 | - | MIC | - | INH resistant | 7.62 µM |
| C[C@]1(COc2ccc(-c3cc(-c4ccccc4F)on3)cc2)Cn2cc([N+](=O)[O-])nc2O1 | - | MIC | broth dilution / resazurin | ss18b non-replicating phase | >36 µM |
| CNn1cc(C(=O)O)c(=O)c2cc(F)c(N3CCN(C)CC3)cc21 | - | MIC50 | - | 19 strains | 6.2 µg/mL |
| COc1ccc2c(ccc3oc([N+](=O)[O-])cc32)c1 | - | MIC bound | resazurin | H37Rv | <6.25 µg/mL |
| Cc1cccc(OC2C(=O)N(c3ccc(Cl)c(F)c3)C2c2ccc(OCC(=O)O)cc2)c1 | 6.25 µg/mL | inhibition | resazurin | H37Rv | 56% |
| CCOC(=O)c1ccc(-n2c(=O)oc3cc(OC)ccc3c2=O)cc1 | - | MIC | - | CNCTC MY331/88 | 8 µM |
| O=C1c2ccccc2C(=O)c2c1cc(O)c(O)c2O | - | MIC bound | BACTEC | H37Rv | ≤128 µg/mL |
| CN(C)c1ccc(NC(=S)NNC(=O)c2ccccc2)cc1 | - | MIC | - | WT | 9.92 µM |
| O=C(O)COc1ccc(C2C(c3ccccc3)C(=O)N2c2ccc(Cl)c(F)c2)cc1 | 6.25 µg/mL | inhibition | resazurin | H37Rv | 77% |
| COc1ccccc1N1CCN(Cc2cc(-c3ccc(Cl)cc3)n(NC(=O)c3cnccn3)c2C)CC1 | - | MIC | - | 27294 | >16 µg/mL |
| O=C(NNC(=O)c1cc(Cl)ccc1[N+](=O)[O-])c1ccncc1 | - | MIC | resazurin | ATTC 27294 | 0.5 µg/mL |
| O=c1[nH][nH]c(=O)n2c1cc1oc(-c3ccccc3)cc12 | 12.5 µg/mL | inhibition | BACTEC | H37Rv | 46% |
| O=c1oc2ccc(Cl)cc2c(=O)n1-c1cccc(Cl)c1 | - | MIC | - | CNCTC MY331/88 | 8 µM |
| Cc1ccc(C)c2c(O)c(C3=Nc4ccccc4NC(c4ccc(Cl)cc4)C3)c(=O)oc12 | - | MIC | resazurin | H37Rv | >6.25 µg/mL |
| C=C1C2CC[C@H](C=O)C(O)(C=O)[C@@]2(C)CC[C@@H]1C | - | MIC | - | H37Rv | 200 µg/mL |
| COc1cc2c(cc1O)N=CC1CCC(O)N1C2=O | - | MIC bound | BACTEC | H37Rv | ≤12.5 µg/mL |
| CC1=C(C(=O)Nc2ccc(F)cc2)C(c2ccccc2Cl)C(C(=O)Nc2ccc(F)cc2)=C(C)N1 | - | MIC | - | H37Rv | >6.25 µg/mL |
| CCOC(=O)c1ccc(-n2c(=O)oc3ccc(F)cc3c2=O)cc1 | - | MIC | - | CNCTC MY331/88 | 16 µM |
| Cc1ccccc1N=Nc1c(S(=O)(=O)O)cc2cc(NC(=O)Nc3ccc4c(O)c(N=Nc5ccc6cc(S(=O)(=O)O)ccc6c5)c(S(=O)(=O)O)cc4c3)ccc2c1O | 12.5 µg/mL | inhibition | BACTEC | H37Rv | 0% |
| C[C@H]1COc2c(N3CCN(C)CC3)c(F)cc3c(=O)c(C(=O)O)cn1c23 | - | EC50 | - | 55 isolates | <1 µg/mL |
| C=C(C)[C@H]1Cc2c(ccc3c2O[C@@H]2COc4cc(OC)c(OC)cc4[C@@H]2C3=O)O1 | - | MIC bound | BACTEC | H37Rv | >128 µg/mL |
| NC1[C@H]2CN(c3nc4c(cc3F)c(=O)c(C(=O)O)cn4-c3ccc(F)cc3F)C[C@@H]12 | - | MIC90 | - | 82 strains | >4 µg/mL |
| O=C1C=C(Nc2ccc3ccccc3c2[N+](=O)[O-])c2ccccc2C1=O | - | MIC bound | resazurin | H37Rv | >6.25 µg/mL |
| O=C(Nc1cccc([N+](=O)[O-])c1)c1cccnc1Cl | - | MIC | - | H37Rv | >20 µg/mL |
| O=C(CC1Sc2ccccc2NC1=O)NNc1c(Cl)cc(Cl)cc1Cl | - | MIC bound | BACTEC | H37Rv | >12.5 µg/mL |
| Cc1cc2nc(C(=O)NC[C@H](C)CO)cc(-c3ccccc3F)c2c(C)c1-c1ccncc1 | - | MIC90 | fluorescence | - | 0.8 µM |
| Cc1ccc2oc(=O)n(-c3cccc([N+](=O)[O-])c3)c(=O)c2c1 | - | MIC | - | CNCTC MY331/88 | 16 µM |
| CC1COC2(CCN(c3nc(=O)c4cc(C(F)(F)F)cc([N+](=O)[O-])c4s3)CC2)O1 | - | MIC | - | NTB1 | 10 µg/mL |
| CC(C)(O)[C@H](O)COc1c2occc2cc2ccc(=O)oc12 | - | MIC | - | H37Rv | 200 µg/mL |
| CC(C)N.CC(C)NC(=S)S | - | MIC | BACTEC | H37Rv | ≥12.5 µg/mL |
| CCn1cc(C(=O)O)c(=O)c2cc(F)c(N3CCNCC3)cc21 | - | MIC50 | - | 134 strains | 4 µg/mL |
| COc1ccccc1N1CCN(Cc2cc(-c3c(C)ccc4ccccc34)[nH]c2-c2ccc(Cl)cc2)CC1 | - | MIC | - | 27294 | 8 µg/mL |
| O=C(Nc1ccccc1)c1ccc([N+](=O)[O-])o1 | - | MIC90 | - | H37Rv | 0.1 µg/mL |
| CC1(C)S[C@@H]2[C@H](NC(=O)[C@H](N)c3ccc(O)cc3)C(=O)N2[C@H]1C(=O)O | - | MIC90 | - | 27 strains | >32 µg/mL |
| COc1ccc(C(=O)CN2CCN(CC(=O)c3ccc(OC)cc3)CC2)cc1 | - | MIC bound | BACTEC | H37Rv | >12.8 µg/mL |
| O=C(O)COc1ccc(C2C(Oc3ccc(Cl)cc3Cl)C(=O)N2c2ccc(Cl)c(F)c2)cc1 | - | MIC90 | resazurin | H37Rv | 0.78 µg/mL |
| Cc1cc(OCc2cc(-c3ccc(OC[C@@]4(C)Cn5cc([N+](=O)[O-])nc5O4)cc3)no2)ccc1C(C)C | - | MIC | broth dilution / resazurin | H37Rv | 0.99 µM |
| Cc1ccc2oc(=O)c(C3=Nc4ccccc4NC(c4cccc(O)c4)C3)c(O)c2c1 | - | MIC | resazurin | H37Rv | >6.25 µg/mL |
| Cc1ccccc1OCc1cc(-c2ccc(OC[C@@]3(C)Cn4cc([N+](=O)[O-])nc4O3)cc2)no1 | - | MIC | broth dilution / resazurin | H37Rv | 4.33 µM |
| Clc1ccnc2c1ccc1c(Cl)ccnc12 | - | MIC bound | BACTEC | H37Rv | >12.5 µg/mL |
| Cc1ccccc1NNC(=O)N1CCN(c2nc(N3CCN(c4ccccc4)CC3)c3ccccc3n2)CC1 | - | MIC | BACTEC / fluorescence | H37Rv | >6.25 µg/mL |
| O=C(NNC(=S)Nc1c(Cl)cccc1Cl)c1ccncc1 | - | MIC | - | WT | 1.14 µM |
| C[Se]C1C(=O)N(Cc2ccccc2)C([Se]C)C(=O)N1Cc1ccccc1 | - | EC50 | turbidity | - | 16.2 µM |
| Cc1ccccc1OC1C(=O)N(c2ccc(Cl)c(F)c2)C1c1ccc(OCC(=O)O)cc1 | - | MIC90 | resazurin | H37Rv | >6.25 µg/mL |
| O=C(N/N=C/c1ccccc1[N+](=O)[O-])c1ccncc1 | - | MIC | resazurin | ATTC 27294 | 5 µg/mL |
| COc1ccc(-c2cn3nc(C(F)(F)F)sc3n2)cc1 | - | MIC | - | H37Rv | >6.25 µg/mL |
| O=C(Nc1ccc(Cl)cc1)c1cccnc1Cl | - | MIC | - | H37Rv | >20 µg/mL |
| C[C@H]1COc2c(N3CCN(C)CC3)c(F)cc3c(=O)c(C(=O)O)cn1c23 | - | MIC90 | - | 45 strains (drug-susceptible) | 1 µg/mL |
| Cc1ccc(-c2nc3sc(S(N)(=O)=O)nn3c2SC#N)cc1 | - | MIC | - | H37Rv | >6.25 µg/mL |
| C/C=C1/CN2[C@H]3C[C@@H]1[C@@H](CO)[C@@H]2Cc1c3[nH]c2ccc(OC)cc12 | - | MIC | - | H37Rv | 100 µg/mL |
| C[C@@H]1C(=O)N(C)C(=O)[C@H]1N | - | MIC | BACTEC | H37Rv | ≥12.8 µg/mL |
| CC1=C(C(=O)Nc2ccc(F)c(Cl)c2)C(c2ccccc2)C(C(=O)Nc2ccc(F)c(Cl)c2)=C(C)N1 | - | MIC | - | H37Rv | >6.25 µg/mL |
| CCOC(=O)CNC(=O)c1[nH]nc2c1C(=O)C(Cl)=CC2=O | 6.25 µg/mL | inhibition | resazurin | H37Rv | -6% |
| O=Cc1ccc(NNC(=O)N2CCN(c3nc(N4CCN(c5ccccc5)CC4)c4ccccc4n3)CC2)cc1 | - | MIC | agar / visual reading | H37Rv | 50 µg/mL |
| CC[C@H]1C[C@H]2C[C@H]3c4[nH]c5ccc(OC)cc5c4CCN(C2)[C@@H]13 | - | MIC | - | H37Rv | 50 µg/mL |
| Cc1ccc2ccccc2c1-c1[nH]c(-c2ccc(Cl)cc2)cc1CN1CCN(c2ccccn2)CC1 | - | MIC | - | 27294 | 4 µg/mL |
| O=C(NNC(=S)Nc1ccc(F)cc1)c1ccncc1 | - | MIC | - | WT | 1.34 µM |
| O=c1oc2ccccc2c(O)c1C1=CC(c2ccc([N+](=O)[O-])cc2)Sc2ccccc2N1 | - | MIC | resazurin | H37Rv | <6.25 µg/mL |
| COc1ccc(NC(=O)c2cccnc2Cl)cc1 | - | MIC | - | H37Rv | >20 µg/mL |
| COc1ccc(CNC(=O)c2nc([N+](=O)[O-])cn2C)c(OC)c1 | - | MIC90 | - | H37Rv | >200 µg/mL |
| NNC(=O)c1c[nH]c2ccccc2c1=O | - | MIC bound | BACTEC | H37Rv | >12.5 µg/mL |
| C[C@]1(COc2ccc(-c3cc(COc4cccc(F)c4)on3)cc2)Cn2cc([N+](=O)[O-])nc2O1 | - | MIC | broth dilution / resazurin | H37Rv | 0.26 µM |
| CC1C(=O)OC(C(Cl)(Cl)Cl)N1C | 12.5 µg/mL | inhibition | BACTEC | H37Rv | 10% |
| N#Cc1ccc(NC(=O)c2cccnc2Cl)cc1 | - | MIC | - | H37Rv | >20 µg/mL |
| N[C@@H]1CONC1=O | 20 µg/mL | inhibition | agar | 35 strains | 91% |
| O=C/C=C/c1ccc([N+](=O)[O-])cc1Cl | - | MIC | resazurin | H37Rv | 6.25 µg/mL |
| NS(=O)(=O)c1nn2cc(-c3ccc(F)cc3)nc2s1 | - | MIC | - | H37Rv | 50 µg/mL |
| Cc1cc(NS(=O)(=O)c2ccc(NO)cc2)no1 | - | MIC bound | BACTEC | H37Rv | >12.5 µg/mL |
| O=C(N/N=C/c1ccc([N+](=O)[O-])cc1[N+](=O)[O-])c1ccncc1 | - | MIC | resazurin | ATTC 27294 | 5 µg/mL |
| CN(C)C1C(=O)C(C(=O)NCN2CCOB(c3ccccc3)OCC2)=C(O)C2(O)C(O)=C3C(=O)C4C(O)=CC=CC4C(C)(O)C3CC12 | - | MIC bound | BACTEC | H37Rv | ≤12.5 µg/mL |
| NC(=O)c1cnccn1 | - | MIC | BACTEC / fluorescence | H37Rv | 3.12 µg/mL |

The first 10 rows once more:

structure,dose,measure,method,strain,value
Nc1ccc(C(=O)O)c(O)c1,-,EC50,agar,35 strains,<5 µg/mL
CN(C(=O)c1ccc([N+](=O)[O-])o1)c1ccccc1,-,MIC90,-,H37Rv,6.25 µg/mL
C[C@@H]1CN(c2c(F)c(N)c3c(=O)c(C(=O)O)cn(C4CC4)c3c2F)C[C@H](C)N1,-,MIC50,-,25 strains,0.1 µg/mL
COc1cccc(NC(=O)C2=C(C)NC(C)=C(C(=O)Nc3cccc(OC)c3)C2c2ccc(Cl)cc2)c1,-,MIC,-,H37Rv,>12.5 µg/mL
O=C(O)c1ccc(Sc2nnc(N3CCN(c4nc(N5CCN(c6ccccc6)CC5)c5ccccc5n4)CC3)o2)cc1,-,MIC,agar / visual reading,H37Rv,100 µg/mL
CC1=C(C(=O)Nc2cc(C)ccc2C)C(c2cccc(Br)c2)C(C(=O)Nc2cc(C)ccc2C)=C(C)N1,-,MIC,-,H37Rv,>6.25 µg/mL
Cc1cccc2[nH]c(=O)c3cccnc3[n+]12,-,MIC,-,H37Rv,>20 µg/mL
CCCCN(CCNc1ccc(C)c2sc3ccccc3c(=O)c12)CC(C)O,-,MIC bound,BACTEC,H37Rv,>12.5 µg/mL
Cc1ccc(-c2nc3sc(S(=O)(=O)/N=C/N(C)C)nn3c2/C=N/N=C(N)N)cc1,6.25 µg/mL,inhibition,-,H37Rv,43%
CN1CCC(CN2c3ccccc3Sc3ccccc32)C1,-,MIC,-,H37RA 16,5 µg/mL